Pooled drug test results. Numbers come from NIAID ChemDB, via PubChem.

Common to all: toxicity to cultured cells; cells: MT-2; read-out: CC50

Conditions beyond the fields shown may differ between rows. CCn: concentration that lowers growth or viability of the cells by n%.

structure,result
CC(C)C[C@H](N)C(=O)N[C@@H](Cc1ccccc1)C(=O)N[C@H](C(=O)N[C@@H](Cc1ccccc1)C(=O)O)C(C)C,17.29 µg/mL
Cc1cc(C)n(-c2cccc(-c3c(C(OC(C)(C)C)C(=O)O)c(C)nc4sc5c(c34)CCCC5)c2)n1,>20 µM
CNc1nc(N)nc2c1ncn2[C@H]1C=C[C@@H](CO)C1,>100 µM
CSCC[C@H](N)C(=O)N[C@@H](CC(C)C)C(=O)N[C@@H](Cc1ccccc1)C(=O)N[C@H](C(=O)N[C@@H](Cc1ccccc1)C(=O)N1CCC[C@H]1C(=O)N[C@@H](CC(=O)O)C(=O)O)C(C)C,89.85 µg/mL
CCCOc1nc(N)nc2c1ncn2[C@@H]1C=C[C@H](CO)C1,95.5 µM
Cc1nc2sc3c(c2c(-c2ccc(Cl)cc2O)c1[C@H](OC(C)(C)C)C(=O)O)CCCC3,>20 µM
COCCOc1nc(N)nc2c1ncn2[C@H]1C=C[C@@H](CO)C1,>100 µM
CCOC(C(=O)O)c1c(C)nc2sc3c(c2c1-c1cnn(CC)c1)CCCC3,>20 µM
CC(C)[C@H](NC(=O)[C@@H](N)Cc1ccccc1)C(=O)N[C@@H](Cc1ccccc1)C(=O)O,42.96 µg/mL
Cc1nc2sc3c(c2c(-c2ccccc2CO)c1C(OC(C)(C)C)C(=O)O)CCCC3,>20 µM
CC(C)C[C@H](N)C(=O)N[C@@H](Cc1ccccc1)C(=O)N[C@H](C(=O)N[C@@H](Cc1ccccc1)C(=O)N1CCC[C@H]1C(=O)O)C(C)C,17.36 µg/mL
N#Cc1ccc(CSCC2(CSCc3ccc(C#N)cc3)NC(=O)NC2=O)cc1,>8 µM
Nc1nc2c(ncn2[C@H]2C=C[C@@H](CO)C2)c(=O)[nH]1,>100 µM
O=C1NC(=O)C(CSCc2cccc3ccccc23)(CSCc2cccc3ccccc23)N1,>100 µM
COc1cc(-c2c(C(OC(C)(C)C)C(=O)O)c(C)nc3sc4c(c23)CCCC4)ccn1,>20 µM
CC(C)C[C@H](NC(=O)[C@@H](N)CO)C(=O)N[C@@H](Cc1ccccc1)C(=O)N[C@H](C(=O)N[C@@H](Cc1ccccc1)C(=O)N1CCC[C@H]1C(=O)O)C(C)C,75.97 µg/mL
O=C1NC(=O)C(CSCc2cccnc2)(CSCc2cccnc2)N1,>100 µM
CSCC[C@@H](NC(=O)[C@@H](CC(C)C)NC(=O)[C@@H](Cc1ccccc1)NC(=O)[C@H](NC(=O)[C@@H](Cc1ccccc1)NC(=O)[C@H]1CCCN1)C(C)C)C(=O)O,0.99 µg/mL
O=C1NC(=O)C(COCc2ccccc2)(COCc2ccccc2)N1,>87 µM

2 of the rows above, restated:

Cc1nc2sc3c(c2c(-c2ccccc2CO)c1C(OC(C)(C)C)C(=O)O)CCCC3 ; result: >20 µM
CCCOc1nc(N)nc2c1ncn2[C@@H]1C=C[C@H](CO)C1 ; result: 95.5 µM